Experimental data published in patent US10940188B2, “Compounds and methods for treatment and prevention of Flavivirus infection” (priority 2016, dated 2021).

These compounds were tested on HEK293 cells (assay: Toxicity IC50 (cell-killing activity) of the NS1 TR-FRET screen). Details: ratio of Toxicity IC50 to NS1 IC50.
Type: cell-based, human

| Compound | Tox IC50/NS1 IC50 ratio |
| --- | --- |
| Cn1c2ccccc2c2c3c(c4c5ccccc5n(CCC#N)c4c21)CNC3=O [Go-6976] | 21.4 |
| O=c1[nH]c(=O)n([C@H]2C[C@H](O)[C@@H](CO)O2)cc1F [Floxuridine] | 65.4 |
| O=c1[nH]c2ccc(Cl)cc2c(N[C@@H]2CN3CCC2CC3)c1-c1nc2ccccc2[nH]1 [CHIR-124] | 8.0 |
| CC(C)C[C@H](NC(=O)[C@@H](NC(=O)c1cccc(-c2ccccc2)n1)[C@@H](C)O)B(O)O [Delanzomib] | 5.1 |
| O=C(Cc1ccc(-c2ccc(OCCN3CCOCC3)cc2)cn1)NCc1ccccc1 [KX-01] | 40.2 |
| CN[C@@H]1C[C@H]2O[C@@](C)([C@@H]1OC)n1c3ccccc3c3c4c(c5c6ccccc6n2c5c31)C(=O)N[C@H]4O [7-Hydroxystaurosporine] | 134.0 |
| Cc1ccc(C(=O)N(CCCN)[C@@H](c2nc3cc(Cl)ccc3c(=O)n2Cc2ccccc2)C(C)C)cc1 [Ispinesib] | 555.9 |
| O=C1c2c(O)ccc(O)c2C(=O)c2c(NCCNCCO)ccc(NCCNCCO)c21 [Mitoxantrone] | 215.4 |
| C/C=C(/C)C(=O)O[C@H]1C(C)=C2[C@H]([C@@H]1OC(=O)CCCCCCC)[C@@](C)(OC(C)=O)C[C@H](OC(=O)CCC)[C@@]1(O)[C@H]2OC(=O)[C@@]1(C)O [Thapsigargin] | 234.5 |
| NCC(=O)Nc1ccc(-n2nc(C(F)(F)F)cc2-c2ccc3c(ccc4ccccc43)c2)cc1 [OSU-03012] | 10.1 |
| C[C@H]1O[C@@H](O[C@H]2[C@@H](O)C[C@H](O[C@H]3[C@@H](O)C[C@H](O[C@H]4CC[C@@]5(C)[C@H](CC[C@@H]6[C@@H]5C[C@@H](O)[C@]5(C)[C@@H](C7=CC(=O)OC7)CC[C@]65O)C4)O[C@@H]3C)O[C@@H]2C)C[C@H](O)[C@@H]1O [Digoxin] | 394.2 |
| OCCCNc1cc(-c2ccnc(Nc3cccc(Cl)c3)n2)ccn1 [CGP-60474] | 75.6 |
| CC(C)C[C@H](NC(=O)CNC(=O)c1cc(Cl)ccc1Cl)B(O)O [MLN-2238] | 9.1 |
